# Assay results reported in PubChem BioAssay AID651828 (ICCB-Longwood Screening Facility, Harvard Medical School, 2012).
# Several values for one entry are separate records, joined by “and”; a condition that tells them apart may be missing. Equal values may be shown once. This is a selection; strong and weak results do not stand in their true shares. Activity calls are given as the source filed them. No stated cut-off is given here; in the data, active means % bound below about 75%; inactive means the rest.
# Molecular target: Nucleoprotein (Rift valley fever virus (strain ZH-548 M12)) (UniProt P21700)
# Assay: inhibitors of RVFV nucleoprotein–RNA binding, primary screen, biochemical, fluorescence polarization (AID 651828)
# Details: RVFV N-RNA binding, hits give low values, concentration not given here
row,SMILES,% bound
1,CCOP(OCC)N1CCOCC1,inactive: 107%
2,O=P(O)(O)F,inactive: 102%
3,CN(C(=O)Cc1ccc(Cl)c(Cl)c1)[C@H]1CCCC[C@@H]1N1CCCC1,inactive: 97.2% and inactive: 98%
4,O=C(O[C@H]1CN2CCC1CC2)C1NCc2ccccc2[C@@H]1c1ccccc1 (some centres undefined),inactive: 107%
5,CN(C(=O)Cc1ccc(Cl)c(Cl)c1)[C@@H]1CCCC[C@@H]1N1CCCC1,inactive: 97.9%
6,O=C(OC1CN2CCC1CC2)c1ccccc1 (centres undefined),inactive: 110%
7,O=C(OCCN1CCN(CCOCc2ccccc2)CC1)C(O)(c1ccccc1)c1ccccc1,inactive: 99.6%
8,CN(C(=O)Cc1ccc(Cl)c(Cl)c1)[C@@H]1CC[C@]2(CCCO2)C[C@H]1N1CCCC1,inactive: 91.3%
9,NC(=O)COC(=O)C1(O)c2ccccc2-c2ccccc21,inactive: 96.5%
10,CN(C(=O)Cc1ccccc1)[C@@H]1CC[C@]2(CCCO2)C[C@H]1N1CCCC1,inactive: 99.8%
11,Nc1nonc1OCCOc1nonc1N,inactive: 87.4%
12,Cc1cc(C)cc(OP(C)(=O)NCc2ccccc2)c1 (centres undefined),inactive: 96.3%
13,CN(C)CCS,inactive: 102%
14,CP(=O)(Nc1ccc(Cl)cc1)Oc1ccccc1 (centres undefined),inactive: 97.2%
